Reference: US20230221313A1

Molecular target: SARS CoV-2 reporter virus particle with spike protein D614G mutation (SARS-CoV-2) (UniProt P0DTC2)
Assay: cell-based or functional assay

anti-SARS-CoV antibody, CR3022 showed a Fold change GFP-/GFP+ (droplet neutralization, NGS reads), Round 2 of 797.
